A mixed list of measured activities; the numbers were collected in NIAID ChemDB.

Shared fields: growth or infection tests; agent: Mycobacterium tuberculosis

Inhibition is in % at the dose shown (toxicity tests: loss of growth or viability). a–b is a range or a potency band. A number after MIC or MFC names an inhibition level or a share of isolates. MIC bound comes from a single tested concentration. Neighbouring rows are from separate reports. Blank or dashed fields: not listed here. ECn is the concentration giving n% inhibition of infection, replication or growth.

compound	strain or isolate	cell line	read by	endpoint	conditions	tested at	result
CCCN=c1cc2n(-c3ccc(Cl)cc3)c3ccccc3nc-2cc1Nc1ccc(Cl)cc1	H37Rv			MIC			0.66 µg/mL
Cc1ccc2nccc(Nc3ccc(S(=O)(=O)Nc4ccnn4-c4ccccc4)cc3)c2c1	Strain 2 (MDR)			MIC			4 µg/mL
C[C@]1(COc2ccc(N3CCN(Cc4cc5ccc(Cl)cc5o4)CC3)cc2)Cn2cc([N+](=O)[O-])nc2O1	H37Rv			MIC			0.006 µg/mL
COc1ccc2oc([N+](=O)[O-])c(C)c2c1[N+](=O)[O-]	H37Rv		resazurin	inhibition		6.25 µg/mL	54%
CC(C)(C)NC(=O)C1c2ccccc2CCN1c1cc2c(cc1[N+](=O)[O-])c(=O)c(C(=O)O)c1n2CS1	H37Rv		agar	MIC			3.07 µM
CN(CC1CCN(c2ccc(OC(F)(F)F)cc2)CC1)c1ccc(OC[C@@]2(C)Cn3cc([N+](=O)[O-])nc3O2)cc1	H37Rv			MIC			0.05 µg/mL
CCCCCCCCOc1ccc2c(c1)C(=O)c1nc3ccccc3c(=O)n1-2	H37Rv			MIC			4 µg/mL
N#Cc1nc2ccccc2nc1Cl	H37Rv			inhibition		12.5 µg/mL	94%
O=C1C=C(C2OC(CI)C(O)C2O)C(=O)N1	H37Rv		BACTEC	MIC bound			>12.5 µg/mL
C[C@]1(COc2ccc(N3CCC(COCc4ccccc4Cl)CC3)cc2)Cn2cc([N+](=O)[O-])nc2O1	H37Rv			MIC			0.05 µg/mL
O=C(CCC(F)(F)F)N1CC(c2cccc(OC(F)(F)F)c2)C1	H37Rv	THP-1	fluorescence	EC50			<0.05 µM
Nc1ccc(S(=O)(=O)Nc2ccnn2-c2ccccc2)cc1	Strain 2 (MDR)			MIC			>4 µg/mL
C[C@]1(COc2ccc(N3CCN(C/C=C/c4ccc(Cl)c(Cl)c4)CC3)cc2)Cn2cc([N+](=O)[O-])nc2O1	H37Rv			MIC			0.012 µg/mL
O=C(O)c1c2n(c3cc(N4CCC(n5c(=O)[nH]c6cc(Cl)ccc65)CC4)c([N+](=O)[O-])cc3c1=O)CS2	H37Rv		agar	MIC			0.73 µM
CO[C@H]1/C=C/O[C@@]2(C)Oc3c(C)c(O)c4c(O)c(c5c(c4c3C2=O)NC2(CCN(CC(C)C)CC2)N=5)=NC(=O)/C(C)=C\C=C\[C@H](C)[C@H](O)[C@@H](C)[C@@H](O)[C@@H](C)[C@H](OC(C)=O)[C@@H]1C				MIC			0.03 µg/mL
Cc1ccc2nc(N/N=C/c3cccc(C)n3)cc(C)c2c1	H37Rv		BACTEC	inhibition		12.5 µg/mL	96%
CCCCOC(=O)c1ccc2[nH]ncc2c1	H37Ra		visual reading	MIC			200 µM
O=C1c2cc(F)ccc2-n2c1nc1ccccc1c2=O	H37Rv			MIC			0.13 µg/mL
CCCCN(CCO)CCNc1ccc(C)c2sc3ccccc3c(=O)c12	H37Rv		BACTEC	MIC bound			≤12.5 µg/mL
CC(=O)NCC1CN(c2ccc(C(C)=O)cc2)C(=O)O1	H37RV (SM-R)			MIC			0.97 µg/mL
O=c1cn[nH]c2nc3ccccc3n12	H37Rv		resazurin	inhibition		6.25 µg/mL	5%
CNC(=O)c1c(-c2ccccc2)oc2cc(OCCN)cc(CN3CCCCC3)c12	mc(^2)7000		resazurin / fluorescence	MIC34			40 µM
O=C1c2ccccc2-n2c1nc1ncncc1c2=O	H37Rv			MIC			4 µg/mL
Cc1cc(NC(=O)c2ccc(N)cc2)ccc1N=Nc1ccc(N=Nc2cc(S(=O)(=O)O)ccc2S(=O)(=O)O)c(C)c1	H37Rv		BACTEC	MIC			≥12.5 µg/mL
Cc1ccc2nc(-c3ccccc3)cc(Nc3cccc(O)c3)c2c1	Strain 2 (MDR)			MIC			>4 µg/mL
O=C(CCC(F)(F)F)N1CC(c2cccnc2)C1	H37Rv	THP-1	fluorescence	EC50			1–10 µM
COc1cc(/C=N/NC(=O)c2cccc([N+](=O)[O-])c2)ccc1O	H37Rv		BACTEC	MIC			≥12.5 µg/mL
C[C@]1(COc2ccc(N3CCC(N4CCN(c5ccc(Cl)cc5)CC4)CC3)cc2)Cn2cc([N+](=O)[O-])nc2O1	H37Rv			MIC			0.05 µg/mL
O=C1Nc2ccc([N+](=O)[O-])cc2[C@]12N1CSC[C@H]1[C@H](c1ccc([N+](=O)[O-])cc1)[C@]21Cc2ccccc2C1=O	H37Rv		agar	MIC99			5.9 µM
O=C(O)c1c2n(c3cc(N4CCN(Cc5ccc6c(c5)OCO6)CC4)c(F)cc3c1=O)CS2	H37Rv		agar	MIC			1.66 µM
CCCCOC(=O)c1ccc2nc[nH]c2c1	H37Ra		visual reading	MIC			200 µM
CC(C)CN=c1cc2n(-c3ccc(Cl)cc3)c3ccccc3nc-2cc1Nc1ccc(Cl)cc1	H37Rv			MIC			0.13 µg/mL
COc1ccc([C@H]2[C@@H]3CSCN3[C@@]3(C(=O)Nc4ccc(Cl)cc43)[C@@]23Cc2ccccc2C3=O)cc1	H37Rv		agar	MIC99			49.7 µM
Cc1c(OCC(F)(F)F)ccnc1CSc1nc2ccccc2[nH]1			resazurin	MIC90	clinical isolate		0.78 µM
Cc1ccc([C@H]2[C@@H]3CSCN3[C@@]3(C(=O)Nc4ccc(Cl)cc43)[C@@]23Cc2ccccc2C3=O)cc1	H37Rv		agar	MIC99			51.3 µM
Cc1cc(NS(=O)(=O)c2ccc(Nc3ccnc4cc(Cl)ccc34)cc2)no1	H37Rv		BACTEC	inhibition		12.5 µg/mL	0%
CC1(c2ccc(F)cc2)CN(C(=O)CCC(F)(F)F)C1	H37Rv	THP-1	fluorescence	EC50			<0.05 µM
CCC(=O)c1ccc2c(c1)N(CCCN(C)C)c1ccccc1S2.O=C(O)/C=C\C(=O)O	H37Rv		BACTEC	inhibition		12.5 µg/mL	74%
Nc1cccc(O)c1	Strain 2 (MDR)			MIC			0.25 µg/mL
O=C1c2cc([N+](=O)[O-])ccc2-n2c1nc1ccccc1c2=O	H37Rv			MIC			0.015 µg/mL
CC(NC(=O)C1CCCN1C(=O)OC(C)(C)C)C(=O)OCc1ccccc1	H37Rv		BACTEC	inhibition		12.5 µg/mL	34%
N#CCCc1cccc(C(=O)OCc2csc(N)n2)c1	H37Rv			MIC			1.25 µg/mL
CC12OC1(C)C1C(=O)OCC1C2=O	H37Rv		BACTEC	MIC			≥12.5 µg/mL
O=C(O)c1cn2c(n1)CN(c1cc3c(cc1F)c(=O)c(C(=O)O)c1n3CS1)CC2	H37Rv		agar	MIC			0.94 µM
COc1ccc2nccc(Nc3ccc(S(=O)(=O)Nc4ccnn4-c4ccccc4)cc3)c2c1	Strain 1 (MDR)			MIC			4 µg/mL
C[C@]1(COc2ccc(N3CCC(COCc4ccc(C(F)(F)F)cc4)CC3)cc2)Cn2cc([N+](=O)[O-])nc2O1	H37Rv			MIC			0.024 µg/mL
COC(=O)c1cc(NC(=O)Nc2cc(C(=O)OC)n(C)c2)cn1C	H37Rv		resazurin	MIC bound			>6.25 µg/mL
COc1ccc([C@H]2[C@@H]3CSCN3[C@@]3(C(=O)Nc4ccccc43)[C@@]23Cc2ccccc2C3=O)cc1	H37Rv		agar	MIC99			53.4 µM
CCOC(=O)C1CSC(c2c(COP(=O)([O-])[O-])cnc(C)c2[O-])N1.[Na+].[Na+].[Na+]	H37Rv		BACTEC	MIC bound			>12.5 µg/mL
Cc1ccccc1[C@H]1[C@@H]2CSCN2[C@@]2(C(=O)Nc3ccc([N+](=O)[O-])cc32)[C@@]12Cc1ccccc1C2=O	H37Rv		agar	MIC99			25.1 µM
C[C@]1(COc2ccc(N3CCC(C/C=C/c4ccc(C(F)(F)F)cc4)CC3)cc2)Cn2cc([N+](=O)[O-])nc2O1	H37Rv			MIC			0.006 µg/mL
Cc1ccc(S(=O)(=O)Oc2ccc3sc4c(CO)ccc(NCCN(C)C)c4c(=O)c3c2)cc1	H37Rv		BACTEC	MIC			3.13 µg/mL
Clc1ccc(N=c2cc3n(-c4ccc(Cl)cc4)c4ccccc4nc-3cc2Nc2ccc(Cl)cc2)cc1	H37Rv			MIC			2.5 µg/mL
CN(C/C=C/c1ccc(C(F)(F)F)cc1)c1ccc(OC[C@@]2(C)Cn3cc([N+](=O)[O-])nc3O2)cc1	H37Rv			MIC			0.024 µg/mL
O=C(CCC(F)(F)F)N1CC(c2ccc(C(F)(F)F)nc2)C1	H37Rv	THP-1	fluorescence	EC50			0.25–0.5 µM
COc1cc2c(cc1OC)CN(c1cc3c(cc1[N+](=O)[O-])c(=O)c(C(=O)O)c1n3CS1)CC2	H37Rv		agar	MIC			0.83 µM
CCCc1ccc(NC2CCN(c3ccc(OC[C@@]4(C)Cn5cc([N+](=O)[O-])nc5O4)cc3)CC2)cc1	H37Rv			MIC			0.024 µg/mL
CNC(=O)c1c(-c2ccc(NC(C)=O)cc2)oc2cc(O)cc(CN3CCCCC3)c12	mc(^2)7000		resazurin / fluorescence	MIC			>20 µM
O=C(CCC(F)(F)F)N1CC(c2cc(Cl)ccn2)C1	H37Rv	THP-1	fluorescence	EC50			0.05–0.25 µM
O=C(O)c1cn2c(n1)CN(c1cc3c(cc1[N+](=O)[O-])c(=O)c(C(=O)O)c1n3CS1)CC2	H37Rv		agar	MIC			0.2 µM
Nc1nc(COC(=O)c2cccc([N+](=O)[O-])c2Cl)cs1	H37Rv			MIC			1.25 µg/mL
COc1cccc2c(NC(=S)Nc3ccc(Cl)cc3)ccnc12	Strain 2 (MDR)			MIC			>2 µg/mL
CNC(=O)c1c(-c2ccccc2)oc2ccc(O)c(CCCNCc3nonc3C)c12	mc(^2)7000		resazurin / fluorescence	MIC			>40 µM
Cc1nc2cccc(F)c2c(=O)n1-c1nnc(C2CC2)s1	H37Rv		resazurin	MIC bound			>6.25 µg/mL
N#Cc1nc2cc(C(F)(F)F)ccc2nc1N	H37Rv			inhibition		12.5 µg/mL	68%
CO[C@H]1/C=C/O[C@@]2(C)Oc3c(C)c(O)c4c(O)c(c5c(c4c3C2=O)NC2(CCN(CC(C)C)CC2)N=5)=NC(=O)/C(C)=C\C=C\[C@H](C)[C@H](O)[C@@H](C)[C@@H](O)[C@@H](C)[C@H](OC(C)=O)[C@@H]1C	1 isolates (Met515Ile Leu533Pro)			MIC			0.125 µg/mL
O=C1Nc2ccc(Cl)cc2[C@]12N1CSC[C@H]1[C@H](c1cccs1)[C@]21Cc2ccccc2C1=O	H37Rv		agar	MIC99			52.2 µM
OCC1OC(/C(N=Nc2ccccc2)=N/Nc2ccccc2)C(O)C1O	H37Rv		BACTEC	MIC bound			>12.5 µg/mL
OCc1c(-c2ccccc2)oc2ccc(O)c(CN3CCC(N4CCCCC4)CC3)c12	mc(^2)7000		resazurin / fluorescence	MIC28			20 µM
C=C1C(=O)OC2[C@@H]1[C@@H](OC(=O)/C(C)=C/C)C[C@@]1(CO1)[C@H]1[C@@H](OC(C)=O)C=C(C)[C@@]21O	H37Rv		BACTEC	MIC			≥12.8 µg/mL
CCC1CCC2CN(/N=C/c3c4c(O)c5c(O)c(C)c6c(c5c3O)C(=O)[C@@](C)(O/C=C/[C@H](OC)[C@@H](C)[C@@H](OC(C)=O)[C@H](C)[C@H](O)[C@H](C)[C@@H](O)[C@@H](C)/C=C/C=C(/C)C(=O)N4)O6)CCN2C1	H37RV (INH-R)			MIC			0.03 µg/mL
Nc1cc2c(cc1Br)[nH]c(=O)c1ccccc12	H37Rv		BACTEC	MIC bound			≤12.5 µg/mL
O=C1Nc2ccccc2[C@]12N1CSC[C@H]1[C@H](c1cccs1)[C@]21Cc2ccccc2C1=O	H37Rv		agar	MIC99			56.2 µM
C=CC[C@]1(O)C[C@H](n2cc(C)c(=O)[nH]c2=O)O[C@@H]1CO[Si](C)(C)C(C)(C)C	H37Rv		resazurin	MIC bound			>6.25 µg/mL
CC1=C2C(=CO[C@H](C)[C@H]2C)C(=O)C(C(=O)O)=C1O	49			inhibition		400 µg/mL	77%
O=C(N/N=C/c1ccccc1)c1ccccc1Nc1ccccc1C(=O)N/N=C/c1ccccc1	H37Rv		BACTEC	inhibition		12.5 µg/mL	0%
CC(C)=C[C@@H]1C[C@H](C)[C@H]2CC[C@H](C)c3c2c1c(C)c1ncoc31				inhibition		12.5 µg/mL	97%

6 of the rows above, restated:

compound	strain or isolate	cell line	read by	endpoint	conditions	tested at	result
COc1ccc2nccc(Nc3ccc(S(=O)(=O)Nc4ccnn4-c4ccccc4)cc3)c2c1	Strain 1 (MDR)			MIC			4 µg/mL
Nc1cc2c(cc1Br)[nH]c(=O)c1ccccc12	H37Rv		BACTEC	MIC bound			≤12.5 µg/mL
O=C1c2cc([N+](=O)[O-])ccc2-n2c1nc1ccccc1c2=O	H37Rv			MIC			0.015 µg/mL
CCC(=O)c1ccc2c(c1)N(CCCN(C)C)c1ccccc1S2.O=C(O)/C=C\C(=O)O	H37Rv		BACTEC	inhibition		12.5 µg/mL	74%
CCCCOC(=O)c1ccc2[nH]ncc2c1	H37Ra		visual reading	MIC			200 µM
CC12OC1(C)C1C(=O)OCC1C2=O	H37Rv		BACTEC	MIC			≥12.5 µg/mL